PubChem BioAssay AID1259414 – Drosophila RNAi Screening Center | 2018

Test: 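Fly genes that alter Wolbachia amount inside host cells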 (primary screen)
System: Drosophila JW18 cells infected with Wolbachia
Reagents: long dsRNA against Drosophila genes, 0.25 µg dsRNA per well of a 384-well plate
Timing: 5 days
Treatment: cells persistently infected with Wolbachia before knock-down; no added drug
Measured: 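Automated imaging of bacterial rRNA staining divided by host cell count, reported as plate-normalised robust z-score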
Reading the numbers: Wolbachia per cell robust z: higher = more Wolbachia per host cell than the plate typical
Rule for the call: 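Hit when robust z is 1.5 or more, or -1.5 or less, in at least two of three replicates; excludes dsRNAs with several or no targets, genes not expressed in JW18 and well A1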
The deposit covers about 24,000 reagents; below is a random part of those that have a named target and a result. Of all reagents, about 1,210 (5%) are marked active. 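Inactive calls also include excluded dsRNAs with several or no targets, genes unexpressed in JW18, and well A1, regardless of score.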 Entries without a mark were called inactive. Names joined by + are all predicted targets of the reagent.

For His2B:CG33878 + His2B:CG33908 + His2B:CG33886 + 21 more [DRSC03757], the values are Wolbachia per cell robust z, rep 1 = -0.209; Wolbachia per cell robust z, rep 2 = -0.0234; Wolbachia per cell robust z, rep 3 = -5.49.
With knock-down of ptc (patched) [DRSC05117], the record shows Wolbachia per cell robust z, rep 1 = -1.87; Wolbachia per cell robust z, rep 2 = -0.0464; Wolbachia per cell robust z, rep 3 = 2.12.
ptc (patched) [DRSC07669] gave Wolbachia per cell robust z, rep 1 = 0.326; Wolbachia per cell robust z, rep 2 = 0.805; Wolbachia per cell robust z, rep 3 = -1.31.
cyr (cypher) [DRSC18017] showed Wolbachia per cell robust z, rep 1 = -2.38; Wolbachia per cell robust z, rep 2 = -1.35; Wolbachia per cell robust z, rep 3 = 0.00255.
With knock-down of cyr (cypher) [DRSC18018], the record shows Wolbachia per cell robust z, rep 1 = -0.714; Wolbachia per cell robust z, rep 2 = -0.477; Wolbachia per cell robust z, rep 3 = -0.356.
Against Ssk (Snakeskin) [DRSC10756], the values are Wolbachia per cell robust z, rep 1 = 0.961; Wolbachia per cell robust z, rep 2 = 0.296; Wolbachia per cell robust z, rep 3 = 0.321.
After knock-down of CG34353 [DRSC14493], the record shows Wolbachia per cell robust z, rep 1 = -0.565; Wolbachia per cell robust z, rep 2 = 0.0242; Wolbachia per cell robust z, rep 3 = 0.618.
For CG34353 [DRSC14517], the values are Wolbachia per cell robust z, rep 1 = -0.727; Wolbachia per cell robust z, rep 2 = -0.961; Wolbachia per cell robust z, rep 3 = -0.256.
Depletion of CG34353 [DRSC14563] resulted in: Wolbachia per cell robust z, rep 1 = 0.633; Wolbachia per cell robust z, rep 2 = -3; Wolbachia per cell robust z, rep 3 = -0.654.
Against CG34353 [DRSC15837], the entry reads Wolbachia per cell robust z, rep 1 = -4.4; Wolbachia per cell robust z, rep 2 = 0.172; Wolbachia per cell robust z, rep 3 = 0.00805.
After knock-down of CG34353 [DRSC22429], the screen gave Wolbachia per cell robust z, rep 1 = 0.393; Wolbachia per cell robust z, rep 2 = 1.35; Wolbachia per cell robust z, rep 3 = 1.19.
For CG34353 [DRSC27095], the values are Wolbachia per cell robust z, rep 1 = -0.919; Wolbachia per cell robust z, rep 2 = -2.03; Wolbachia per cell robust z, rep 3 = -0.993.
CG34353 [DRSC30113] gave Wolbachia per cell robust z, rep 1 = 1.09; Wolbachia per cell robust z, rep 2 = 0.912; Wolbachia per cell robust z, rep 3 = 0.806.
Notum [DRSC09959] scored Wolbachia per cell robust z, rep 1 = 0.0723; Wolbachia per cell robust z, rep 2 = -0.074; Wolbachia per cell robust z, rep 3 = -0.452.
Against CG40228 [DRSC37832], the entry reads Wolbachia per cell robust z, rep 1 = 0.582; Wolbachia per cell robust z, rep 2 = 0.914; Wolbachia per cell robust z, rep 3 = -0.0927.
Knock-down of SamDC (S-adenosylmethionine decarboxylase) [DRSC03429] resulted in: Wolbachia per cell robust z, rep 1 = -0.744; Wolbachia per cell robust z, rep 2 = -0.778; Wolbachia per cell robust z, rep 3 = -8.06.
With knock-down of CG12147 [DRSC12192], the screen gave Wolbachia per cell robust z, rep 1 = -4.74; Wolbachia per cell robust z, rep 2 = -0.971; Wolbachia per cell robust z, rep 3 = 2.67.
Depletion of CG12147 [DRSC30029] gave: Wolbachia per cell robust z, rep 1 = -5.75; Wolbachia per cell robust z, rep 2 = -1.2; Wolbachia per cell robust z, rep 3 = 0.456.
After knock-down of Atg7 (Autophagy-related 7) [DRSC05741] the results were Wolbachia per cell robust z, rep 1 = 0.858; Wolbachia per cell robust z, rep 2 = 0.907; Wolbachia per cell robust z, rep 3 = 0.696.
For Atg7 (Autophagy-related 7) [DRSC06937] the deposit lists Wolbachia per cell robust z, rep 1 = 1.11; Wolbachia per cell robust z, rep 2 = -1.63; Wolbachia per cell robust z, rep 3 = 0.00493.
Knock-down of CG10584 [DRSC11624] came out at: Wolbachia per cell robust z, rep 1 = -1.27; Wolbachia per cell robust z, rep 2 = 0.753; Wolbachia per cell robust z, rep 3 = -0.835.
With knock-down of mRF1 (mitochondrial translation release factor 1) [DRSC02880], the screen gave Wolbachia per cell robust z, rep 1 = -0.887; Wolbachia per cell robust z, rep 2 = 0.141; Wolbachia per cell robust z, rep 3 = -1.18.
Silencing of mRF1 (mitochondrial translation release factor 1) [DRSC29576] came out at: Wolbachia per cell robust z, rep 1 = 0.234; Wolbachia per cell robust z, rep 2 = 0.416; Wolbachia per cell robust z, rep 3 = 0.752.
Fs (Follistatin) [DRSC06258] showed Wolbachia per cell robust z, rep 1 = -2.1; Wolbachia per cell robust z, rep 2 = 0.151; Wolbachia per cell robust z, rep 3 = 0.0216.
Fs (Follistatin) [DRSC06259] gave Wolbachia per cell robust z, rep 1 = -4.04; Wolbachia per cell robust z, rep 2 = 0.637; Wolbachia per cell robust z, rep 3 = 0.9.
With knock-down of Fs (Follistatin) [DRSC23507], the screen gave Wolbachia per cell robust z, rep 1 = -0.871; Wolbachia per cell robust z, rep 2 = -0.82; Wolbachia per cell robust z, rep 3 = -0.0207.
After knock-down of CR14578 + bcd [DRSC20984], the record shows Wolbachia per cell robust z, rep 1 = 0.179; Wolbachia per cell robust z, rep 2 = 0.439; Wolbachia per cell robust z, rep 3 = 0.66.
After knock-down of CG12783 [DRSC14538] the results were Wolbachia per cell robust z, rep 1 = 0.0209; Wolbachia per cell robust z, rep 2 = 0.805; Wolbachia per cell robust z, rep 3 = 0.165.
After knock-down of CG3581 [DRSC15499], the record shows Wolbachia per cell robust z, rep 1 = 0.729; Wolbachia per cell robust z, rep 2 = -2.17; Wolbachia per cell robust z, rep 3 = -0.129.
Silencing of Prosalpha2 (Proteasome alpha2 subunit) [DRSC16798] resulted in: Wolbachia per cell robust z, rep 1 = 0.628; Wolbachia per cell robust z, rep 2 = 2.73; Wolbachia per cell robust z, rep 3 = 1.07.
Prosalpha2 (Proteasome alpha2 subunit) [DRSC28078] gave Wolbachia per cell robust z, rep 1 = 2.06 (active); Wolbachia per cell robust z, rep 2 = 1.89; Wolbachia per cell robust z, rep 3 = 1.58.

In a second layout: 3 of the entries above
{"gene": "cyr (cypher)", "amplicon": "DRSC18018", "Wolbachia per cell robust z, rep 1": -0.714, "Wolbachia per cell robust z, rep 2": -0.477, "Wolbachia per cell robust z, rep 3": -0.356}
{"gene": "Ssk (Snakeskin)", "amplicon": "DRSC10756", "Wolbachia per cell robust z, rep 1": 0.961, "Wolbachia per cell robust z, rep 2": 0.296, "Wolbachia per cell robust z, rep 3": 0.321}
{"gene": "CG34353", "amplicon": "DRSC14493", "Wolbachia per cell robust z, rep 1": -0.565, "Wolbachia per cell robust z, rep 2": 0.0242, "Wolbachia per cell robust z, rep 3": 0.618}
